Pooled drug test results. Numbers come from NIAID ChemDB, via PubChem.

All rows: whole-cell or culture tests; agent: Mycobacterium tuberculosis

Fold resistance has wild type as its base. ECn is the concentration giving n% inhibition of infection, replication or growth. Lines come from different laboratories, so protocols vary. Inhibition is in % at the dose shown (toxicity tests: loss of growth or viability). A number after MIC or MFC names an inhibition level or a share of isolates. MIC bound: limit read from a one-dose screen. Blank or dashed fields: not listed here.

structure,changes,tested at,endpoint,read by,cell line,conditions,strain,value
O=C(NNCc1cccc(C(F)(F)F)c1)c1ccncc1,,,MIC,,,,Thiacetazone-resistant,>6.25 µg/mL
CO[C@H]1/C=C/O[C@@]2(C)Oc3c(C)c(O)c4c(=O)c(c5oc6cc(N7CCN(CC(C)C)CC7)cc(=O)c6nc5c4c3=C2O)NC(=O)/C(C)=C\C=C\[C@H](C)[C@H](O)[C@@H](C)[C@@H](O)[C@@H](C)[C@H](OC(C)=O)[C@@H]1C,,,MIC,,,,2225 (rifampicin-resistant),4 µg/mL
NNC(=O)c1ccncc1,,,MIC,,,,CSU27,≤0.125 µg/mL
Cc1ccc(CNCCNCc2ccco2)cc1,,,MIC,,,,,25 µM
C=C(C)C1CC=C(C)/C(=N/NC(=O)c2cccnc2)C1,,,MIC bound,BACTEC,,,H37Rv,≤12.5 µg/mL
CCOC(=O)c1ccc(-n2c(=O)oc3ccccc3c2=O)cc1,,,MIC,,,,CNCTC MY331/88,16 µM
Clc1ccc(-n2ncc(C(c3ccccc3)n3ccnc3)c2-c2ccccc2Cl)c(Cl)c1,,,MIC90,,,,ATCC 35828 (pyrazinamide-resistant),60.2 µM
NC[C@H]1O[C@H](O[C@H]2[C@H](O)[C@@H](O[C@H]3O[C@H](CO)[C@@H](O)[C@H](N)[C@H]3O)[C@H](N)C[C@@H]2N)[C@H](O)[C@@H](O)[C@@H]1O,,,MIC,,,,TN1521 (BU),>256 µg/mL
O=[N+]([O-])c1cn2c(n1)OC[C@@H](OCc1cccc(C#Cc3ccc(C(F)(F)F)cc3)c1)C2,,,MIC90,resazurin,,,,0.21 µM
Fc1ccccc1-c1c(C(c2ccccc2)n2ccnc2)cnn1-c1ccccc1F,,,MIC50,,,,ATCC 35820 (streptomycin-resistant),≥100 µM
O=c1oc2ccc(F)cc2c(=O)n1-c1cccc([N+](=O)[O-])c1,,,MIC,,,,CNCTC MY331/88,16 µM
CCN=c1cc2n(-c3ccc(C(F)(F)F)cc3)c3ccccc3nc-2cc1Nc1ccc(C(F)(F)F)cc1,,,MIC,,,multidrug-resistant,2225,0.12 µg/mL
O=C(N/N=C/c1cccc(C(F)(F)F)c1)c1ccncc1,,,MIC,,,,Kanamycin-resistant,0.1 µg/mL
CCCCCCN1C(=O)C=CC1=O,,,MIC,,,,H37Ra,≤20 µg/mL
Cc1c(S(=O)(=O)c2ccccc2)[n+](=O)c2cc(Cl)ccc2n1[O-],,6.25 µg/mL,inhibition,,,,H37Rv,100%
Fc1ccc(N2CSC(=S)N(c3ccc(F)cc3F)C2)c(F)c1,,12.5 µg/mL,inhibition,BACTEC,,,H37Rv,-6%
CC(NNC(=O)c1ccncc1)c1ccc(Cl)c(Cl)c1,,,MIC,,,,Rifampicin-resistant,3.13 µg/mL
NC(=O)c1cnccn1,,,MIC,,,,DHMH6577 niacin-positive,>2048 µg/mL
C/C(=N\NC(=O)c1ccncc1)c1ccc(F)cc1,,,MIC,,,,H37Rv (thiacetazone-resistant),>32 µg/mL
O=C(O)c1cn(C2CC2)c2c(F)c(N3CCSCC3)c(F)cc2c1=O,,,MIC,,,,CSU26,4 µg/mL
Cc1nccc2c(C)c3c(cc12)c1ccccc1n3CCC1CO1,,,MIC,resazurin,VERO,,H37Rv,1.56 µg/mL
O=C(NNCc1ccccc1)c1ccncc1,,,EC90,colony count,Macrophages,inside macrophages,Erdman,0.005 µg/mL
CCCCCCCCCN1C(=O)CC(NCCCCCCC)C1=O,,,MIC,,,,H37Ra,≤20 µg/mL
Cc1ccc2oc(=O)n(-c3ccc(Cl)cc3)c(=O)c2c1,,,MIC,,,,CNCTC MY331/88,16 µM
CC(C)O/N=C/c1cc(NC(=S)OC(C)C)ccc1Cl,,,MIC bound,BACTEC,,,H37Rv,≤12.5 µg/mL
O=C(N/N=C/c1cccc(F)c1)c1ccncc1,,,MIC,,,,Erdman,0.4 µg/mL
NNC(=O)c1ccncc1,,,MIC,,,,NHN113,5 µg/mL
CCc1ccc([C@H]2C[C@@H](C(F)(F)F)n3ncc(C(=O)NCc4ccc(OC)cc4)c3N2)cc1,MmpL3: Val713Met,,fold resistance,fluorescence,,,H37Rv,>70
Clc1ccccc1-c1c(C(c2ccccc2)n2ccnc2)cnn1-c1ccccc1,,,MIC90,,,,ATCC 35822 (isoniazid-resistant),87.4 µM
CCCCC1(C(C#N)C#N)c2ccccc2-c2ccccc21,,12.5 µg/mL,inhibition,BACTEC,,,H37Rv,38%
COc1ccc(-n2c(=O)oc3ccc(C)cc3c2=O)cc1,,,MIC,,,,CNCTC MY331/88,125 µM
CCOC(=O)C=C(c1ccc(OC)c(OC)c1)c1ccc(OC)c(OC)c1,,12.5 µg/mL,inhibition,BACTEC,,,H37Rv,0%
Clc1ccc(-n2cc(CNC3c4ccccc4-c4ccccc43)nn2)c(Cl)c1,,,MIC99,broth dilution,,,Specimen 192,>246 µM
CCOCCCNCCNC[C@@H]1CC[C@H]2C[C@@H]1C2(C)C,,,MIC,,,,,50 µM
CCOc1cc2c(cc1F)n([O-])c(C)c(Sc1ccccc1)[n+]2=O,,,MIC,,,,H37Rv,>6.25 µg/mL
O=C(CCCCC(=O)N/N=C/c1cccc2ccccc12)N/N=C/c1cccc2ccccc12,,12.5 µg/mL,inhibition,BACTEC,,,H37Rv,-6%
O=c1oc2ccc([N+](=O)[O-])cc2c(=O)n1-c1cccc([N+](=O)[O-])c1,,,MIC,,,,CNCTC MY331/88,125 µM
Clc1ccc(-c2c(C(c3ccccc3)n3ccnc3)cnn2-c2ccc(Cl)cc2)cc1,,,MIC90,,,,ATCC 35820 (streptomycin-resistant),≥100 µM
C/C(=N\NC(=O)c1ccncc1)c1ccccc1,,,MIC,,,,H37Rv (thiacetazone-resistant),>32 µg/mL
O=[N+]([O-])c1cn2c(n1)OC[C@@H](OCc1ccc(Oc3ccc(C(F)(F)F)nc3)nc1)C2,,,MIC90,low oxygen,,,,8.6 µM
Clc1ccccc1C(c1ccccc1)(c1ccccc1)n1ccnc1,,,MIC50,,,,ATCC 35828 (pyrazinamide-resistant),≥100 µM
Fc1cccc(-n2c(=S)oc3ccc(Br)cc3c2=S)c1,,,MIC,,,14 d,My 331/88,2 µM
c1ccc(-c2c(C(c3ccccc3)n3ccnc3)cnn2-c2ccccc2)cc1,,,MIC90,,,,ATCC 35828 (pyrazinamide-resistant),>100 µM
CCCc1nn(C)c(CCC(=O)N(Cc2ccccc2)Cc2ccccc2)c1CC,,6.25 µg/mL,inhibition,resazurin,,,H37Rv,-11%
O=C(N/N=C/c1ccccc1F)c1ccncc1,,,MIC,,,,H37Rv (isoniazid-resistant),>32 µg/mL
COc1cccc2c1C(=O)c1c(O)c3c(c(O)c1C2=O)CC(O)(C(C)=O)CC3OC1CC(NCC2(O)OC(C(=O)NCCCN(C)C)C(O)C2O)C(O)C(C)O1,,,MIC,,,,KM-R,12.5 µg/mL
Cc1ccc2c(=O)n(-c3ccc(C(F)(F)F)cc3)c(=O)oc2c1,,,MIC,,,,CNCTC MY331/88,32 µM
CCCCCCCCCN1C(=O)CC(C)(SCCN)C1=O,,,MIC,,,,H37Rv,≤20 µg/mL
O=c1[nH]cnc2ncnn12,,,MIC bound,resazurin,,,H37Rv,>6.25 µg/mL
O=C(NNCc1ccc(F)cc1)c1ccncc1,,,MIC,,,,H37Rv,0.39 µg/mL
Cc1nc(-n2nc(-c3ccccc3)cc2-c2ccccc2)sc1C(=O)/C=C/c1ccc(Cl)cc1,,6.25 µg/mL,inhibition,resazurin,,,H37Rv,21%
CO[C@H]1/C=C/O[C@@]2(C)Oc3c(C)c(O)c4c(O)c(c5c(c4c3C2=O)NC2(CCN(CC(C)C)CC2)N=5)=NC(=O)/C(C)=C\C=C\[C@H](C)[C@H](O)[C@@H](C)[C@@H](O)[C@@H](C)[C@H](OC(C)=O)[C@@H]1C,,,MIC,,,,CSU18,≤0.125 µg/mL
O=[n+]1c(Sc2ccccc2)c(CBr)n([O-])c2ccccc21,,6.25 µg/mL,inhibition,,,,H37Rv,28%
Cc1ccc(-n2c(=O)oc3ccc(F)cc3c2=O)cc1,,,MIC,,,,CNCTC MY331/88,31 µM
C=C1C(=O)[C@@]23CC[C@H]4C(C)(CCC[C@@]4(C)C(=O)OC)[C@@H]2CC[C@]1(O)C3,,,MIC,BACTEC,,,H37Rv,6.25 µg/mL
COc1ccc(CCc2cc(OC)c3ccccc3n2)cc1OC,,,MIC,,,,MT5,77 µg/mL
Clc1ccc(-n2cc(CSC3c4ccccc4-c4ccccc43)nn2)c(Cl)c1,,,MIC99,broth dilution,,,H37Rv,>236 µM
Fc1ccc(-c2c(C(c3ccccc3)n3ccnc3)cnn2-c2ccc(F)cc2F)cc1,,,MIC90,,,,ATCC 35828 (pyrazinamide-resistant),≥100 µM
O=[N+]([O-])c1cn2c(n1)OC[C@@H](OCc1ccc(Oc3ccc(F)cc3)nc1)C2,,,MIC90,resazurin,,,,0.12 µM
Cc1ccc2oc(=S)n(-c3ccccc3)c(=S)c2c1,,,MIC,,,21 d,My 331/88,1 µM
CCCCCCCCN1C(=O)C=C(C)C1=O,,,MIC,,,,Clinical isolate (isoniazid-resistant),≤20 µg/mL
FC(F)(F)c1ccc(-n2cc(CNC3c4ccccc4-c4ccccc43)nn2)cc1,,,MIC99,broth dilution,,,H37Rv,123.3 µM
Nc1ncc(NCCCNc2ccc(C(=O)NC(CCC(=O)O)C(=O)O)cc2)c(=O)[nH]1,,12.5 µg/mL,inhibition,BACTEC,,,H37Rv,0%
C[C@@H]1Cn2cc(C(=O)O)c(=O)c3cc(F)c(N4CCN(/C(N)=N/C(N)=NCCCCCCN=C(N)/N=C(\N)N5CCN(c6c(F)cc7c(=O)c(C(=O)O)cn8c7c6O[C@@H](C)C8)CC5)CC4)c(c32)O1,,,MIC,broth dilution,,,ATCC 35822,1.25 µg/mL
Cc1ccc2c(c1)n([O-])c(C)c(Cl)[n+]2=O,,6.25 µg/mL,inhibition,,,,H37Rv,100%
O=c1oc2ccc(Br)cc2c(=O)n1-c1cccc(F)c1,,,MIC,,,,CNCTC MY331/88,8 µM
COc1cc(CNCCNCc2ccccc2)cc(OC)c1OC,,,MIC,,,,,50 µM
CC1COc2c(N3CCN(C)CC3)c(F)cc3c(=O)c(C(=O)O)cn1c23,,,MIC,,,,900201,0.75 µg/mL
O=S(=O)(Cc1cn(-c2ccc(Br)cc2)nn1)C1c2ccccc2-c2ccccc21,,,MIC99,broth dilution,,,H37Rv,>214 µM
COC1=C2CC(C)CC(OC)C(O)C(C)/C=C(\C)C(OC(N)=O)C(OC)/C=C\C=C(/C)C(=O)NC(=C(C=NC(C)(C)C)C1=O)C2=O,,,MIC,,,,PZA-R,>12.5 µg/mL
CC1CN(c2c(F)cc3c(=O)c(C(=O)O)cn(C4CC4)c3c2F)CC(C)N1,,,MIC,,,,CSU21,≤0.125 µg/mL
O=c1oc2ccc(Br)cc2c(=S)n1-c1ccc(F)cc1,,,MIC,,,14 d,My 331/88,0.5 µM
COc1ccc(C2CC(=O)c3c(cc(OC)c(OC)c3OC)O2)cc1,,12.5 µg/mL,inhibition,BACTEC,,,H37Rv,-4%
O=[N+]([O-])c1cn2c(n1)OC[C@@H](OCc1ccnc(N3CCC(Oc4ccc(OC(F)(F)F)cc4)CC3)c1)C2,,,MIC90,low oxygen,,,,5.2 µM
CC1COc2c(N3CCN(C)CC3)c(F)cc3c(=O)c(C(=O)O)cn1c23,,,MIC,BACTEC,,,07-10342,0.5 µg/mL
Cc1nn(-c2cc(Cl)ccc2[N+](=O)[O-])c(C)c1Cl,,12.5 µg/mL,inhibition,BACTEC,,,H37Rv,41%
Fc1ccc2oc(=S)n(-c3ccc(Cl)c(Cl)c3)c(=S)c2c1,,,MIC,,,21 d,My 331/88,2 µM
Cc1cccc(/C=N/Nc2ccccn2)n1,,,MIC bound,BACTEC,,,H37Rv,≤12.5 µg/mL
Clc1ccc(-c2c(C(c3ccccc3)n3ccnc3)cnn2-c2ccc(Cl)cc2Cl)cc1,,,MIC50,,,,ATCC 27294,6.7 µM
O=C(CCl)c1ccc2ccc3c(c2c1)Nc1ccccc1S3,,12.5 µg/mL,inhibition,BACTEC,,,H37Rv,96%
O=c1oc2ccccc2c(=O)n1-c1ccc(Br)cc1,,,MIC,,,,CNCTC MY331/88,31 µM
COc1ccc(C(C)c2cc3c(cc2OC)OCO3)cc1,,12.8 µg/mL,inhibition,BACTEC,,,H37Rv,11%
O=[N+]([O-])c1cn2c(n1)OC[C@@H](OCc1ccc(N3CCN(c4ccc(OC(F)(F)F)cc4)CC3)nc1)C2,,,MIC90,resazurin,,,,0.05 µM
COc1ccc(S(=O)(=O)NC(=S)S)cc1,,,MIC,,,,ETA-R,>12.8 µg/mL
COc1ccc(CCC2CCc3ccccc3N2C)cc1OC,,,MIC,,,,MT1,161 µg/mL

7 of the rows above, restated:

{"structure": "CCCCC1(C(C#N)C#N)c2ccccc2-c2ccccc21", "tested at": "12.5 µg/mL", "endpoint": "inhibition", "read by": "BACTEC", "strain": "H37Rv", "value": "38%"}
{"structure": "CCN=c1cc2n(-c3ccc(C(F)(F)F)cc3)c3ccccc3nc-2cc1Nc1ccc(C(F)(F)F)cc1", "endpoint": "MIC", "conditions": "multidrug-resistant", "strain": "2225", "value": "0.12 µg/mL"}
{"structure": "O=c1[nH]cnc2ncnn12", "endpoint": "MIC bound", "read by": "resazurin", "strain": "H37Rv", "value": ">6.25 µg/mL"}
{"structure": "CC(NNC(=O)c1ccncc1)c1ccc(Cl)c(Cl)c1", "endpoint": "MIC", "strain": "Rifampicin-resistant", "value": "3.13 µg/mL"}
{"structure": "Cc1nc(-n2nc(-c3ccccc3)cc2-c2ccccc2)sc1C(=O)/C=C/c1ccc(Cl)cc1", "tested at": "6.25 µg/mL", "endpoint": "inhibition", "read by": "resazurin", "strain": "H37Rv", "value": "21%"}
{"structure": "COc1ccc(CCc2cc(OC)c3ccccc3n2)cc1OC", "endpoint": "MIC", "strain": "MT5", "value": "77 µg/mL"}
{"structure": "FC(F)(F)c1ccc(-n2cc(CNC3c4ccccc4-c4ccccc43)nn2)cc1", "endpoint": "MIC99", "read by": "broth dilution", "strain": "H37Rv", "value": "123.3 µM"}